Results of unrelated studies side by side (data: NIAID ChemDB).

Common to all: host cell toxicity; cells: HepG2; measure: CC50

Two numbers with a dash give a range or band.

{"SMILES": "CCCC=C1c2ccccc2Sc2ccccc21", "method": "resazurin", "value": "14 µg/mL"}
{"SMILES": "COc1ccc(OCc2nn3c(-c4ccc(Br)cc4)nnc3s2)cc1", "method": "resazurin", "value": "50.17 µM"}
{"SMILES": "CCCCCCCc1ccc(-c2cn(C/C(C)=C/CP(=O)(OCOC(=O)OC(C)C)OCOC(=O)OC(C)C)nn2)cc1", "method": "absorbance", "value": "90.8 µM"}
{"SMILES": "NC[C@H]1OB(O)c2c3c(cc(Br)c21)OCCO3", "method": "radiometric", "value": "39.5 µM"}
{"SMILES": "O=[N+]([O-])c1ccc(OCc2nn3c(Cc4ccc5ccccc5c4)nnc3s2)cc1", "method": "resazurin", "value": "15.19 µM"}
{"SMILES": "C/C(=C\\CP(=O)(OCOC(=O)OC(C)C)OCOC(=O)OC(C)C)Cn1cc(C(=O)O)nn1", "method": "absorbance", "value": ">100 µM"}
{"SMILES": "CC(C)C[C@@H]1NC(=O)[C@H](Cc2c[nH]c3ccccc23)NC(=O)CNC(=O)[C@H](CO)NC(=O)[C@H](C(C)C)NC(=O)[C@@H](CC(C)C)NC1=O", "method": "MTT", "value": ">30 µM"}
{"SMILES": "Cc1ccc(NC(=O)c2cc3sc(N4CCN(C5COC5)[C@H](C)C4)nc3s2)nc1", "method": "fluorescence", "value": ">100 µM"}
{"SMILES": "Cc1cccc(C)c1Oc1ccc(-c2nc(N)nc(N)n2)cc1", "method": "sulforhodamine / absorbance", "value": ">260 µM"}
{"SMILES": "Cn1nc(C2CC2)cc1C(=O)Nc1ccc(I)cc1", "method": "luminescence", "value": ">100 µM"}
{"SMILES": "O=C1COc2ccc(N3C(=O)O[C@@H]4C[C@@H](NCCn5c(=O)ccc6ccc(OCCO)nc65)CC[C@@H]43)nc2N1", "method": "luminescence", "value": ">100 µg/mL"}
{"SMILES": "COc1cccc(CNCCCNc2ccnc3cc(Cc4cc(C)cc(C)c4)ccc23)c1O", "method": "fluorescence", "value": "2.68 µM"}
{"SMILES": "C/C(=C\\CP(=O)(OCOC(=O)OC(C)C)OCOC(=O)OC(C)C)Cn1cc(C(N)=O)nn1", "method": "absorbance", "value": ">100 µM"}
{"SMILES": "Clc1c(-c2ccccc2)nc2ccccn12", "method": "fluorescence", "value": ">100 µM"}
{"SMILES": "CCCCCN1C2=C(Sc3ccccc31)C(=O)OC2", "method": "resazurin", "value": ">32 µg/mL"}
{"SMILES": "CC(C)N(Cc1cccc(OCCCCCC(=O)OC(=O)O)c1)C(=O)c1ccc(-c2cccc([N+](=O)[O-])c2)cc1", "value": ">20 µM"}
{"SMILES": "Nc1ncnc2c1c(-c1cccs1)cn2[C@H]1O[C@H](CO)[C@@H](O)C1(F)F", "method": "XTT", "value": ">10 µM"}
{"SMILES": "CCOc1ccc(Cl)c2c1B(O)O[C@@H]2CN", "method": "radiometric", "value": "19.6 µM"}
{"SMILES": "CC(C)N(Cc1cccc(OCCCCCC(=O)OC(=O)O)c1)C(=O)c1ccc(-c2ccc3ccccc3c2)cc1", "value": ">20 µM"}
{"SMILES": "Nc1ncnc2c1c(-c1ccco1)cn2[C@@H]1O[C@H](CO)[C@@H](O)[C@H]1F", "method": "XTT", "value": ">10 µM"}
{"SMILES": "Cc1cc(NC(=O)c2c(C)c(C(=O)C(=O)NC3(CO)CCN(C(=O)c4ccnn4C)CC3)n(C)c2C)ccc1F", "method": "MTT", "value": ">30 µM"}
{"SMILES": "CCNC(=O)c1cn(C/C(C)=C/CP(=O)(OCOC(=O)OC(C)C)OCOC(=O)OC(C)C)nn1", "method": "absorbance", "value": ">100 µM"}
{"SMILES": "CCOc1cccc(-c2ccc(C(=O)N(Cc3cccc(OCCCCCC(=O)OC(=O)O)c3)C(C)C)cc2)c1", "value": ">20 µM"}
{"SMILES": "OCc1cn(-c2ccc(F)cc2)nc1-c1ccc(Cl)cc1", "method": "luminescence", "value": "66 µM"}
{"SMILES": "CCCCCCCC(=O)NCc1cn(C/C(C)=C/CP(=O)(OCOC(=O)OC(C)C)OCOC(=O)OC(C)C)nn1", "method": "absorbance", "value": "57.3 µM"}
{"SMILES": "NC[C@H]1OB(O)c2c(OCCO)ccc(Cl)c21", "method": "radiometric", "value": "137 µM"}
{"SMILES": "COc1ccc(Oc2ccc3c(NCCCNCc4ccco4)ccnc3c2)cc1", "method": "fluorescence", "value": "5.3 µM"}
{"SMILES": "Cc1nnc(-c2cccc(-c3ccc(C(=O)N(Cc4cccc(OCCCCCC(=O)OC(=O)O)c4)C(C)C)cc3)c2)o1", "value": ">20 µM"}
{"SMILES": "Cc1c(C(=O)NCc2noc(C(F)(F)F)n2)c(C)n(C)c1C(=O)C(=O)NC(C)(C)C", "method": "MTT", "value": ">30 µM"}
{"SMILES": "Nc1ncnc2c1c(-c1ccccc1)cn2[C@@H]1O[C@H](CO)[C@@H](O)[C@H]1F", "method": "XTT", "value": ">10 µM"}
{"SMILES": "COc1cc2c(cc1OC)C(CC1(C)OCCO1)=NCC2", "value": ">20 µM"}
{"SMILES": "COc1ccc(-c2ccc3c(NCCCNCc4cc(F)ccc4OC)ccnc3c2)cc1", "method": "fluorescence", "value": "5.96 µM"}
{"SMILES": "C#Cc1cn([C@@H]2O[C@H](CO)[C@@H](O)C2(F)F)c2ncnc(N)c12", "method": "XTT", "value": "0.4 µM"}
{"SMILES": "Cc1cc(NC(=O)c2c(C)c(C(=O)C(=O)NC3CCC(OCC(=O)O)CC3)n(C)c2C)ccc1F", "method": "MTT", "value": ">30 µM"}
{"SMILES": "COc1ccc(F)cc1CNCCCNc1ccnc2cc(Cc3ccc(C#N)cc3)ccc12", "method": "fluorescence", "value": "6.05 µM"}
{"SMILES": "C/C(=C\\CP(=O)(OCOC(=O)OC(C)C)OCOC(=O)OC(C)C)Cn1cc(C2CC2)nn1", "method": "absorbance", "value": ">100 µM"}
{"SMILES": "CC(C)C[C@@H]1NC(=O)[C@H](Cc2c[nH]c3ccccc23)NC(=O)[C@@H](CCCCN)NC(=O)[C@H](CC(=O)O)NC(=O)[C@H](C(C)C)NC(=O)[C@@H](CC(C)C)NC1=O", "method": "MTT", "value": ">30 µM"}
{"SMILES": "CCNc1ccnc2sc(C(=O)Cc3ccccc3)c(N)c12", "method": "luminescence", "value": "30 µM"}
{"SMILES": "CN(C)CCCN1c2ccccc2Sc2ccc(Cl)cc21", "method": "resazurin", "value": "8 µg/mL"}
{"SMILES": "C[C@@H]1CN(c2nc3sc(C(=O)N[C@H]4C[C@@H]4C)cc3s2)CCO1", "method": "fluorescence", "value": ">100 µM"}
{"SMILES": "NCCOc1ccc2ccc(=O)n(CCN[C@H]3CC[C@H]4[C@@H](C3)OC(=O)N4c3ccc4c(n3)NC(=O)CO4)c2c1", "method": "luminescence", "value": ">100 µg/mL"}
{"SMILES": "C/C(=C\\CP(=O)(OCOC(=O)OC(C)C)OCOC(=O)OC(C)C)Cn1cc(C=O)nn1", "method": "absorbance", "value": ">100 µM"}
{"SMILES": "Cc1cc(=O)oc2cc(-c3ccc([N+](=O)[O-])o3)c3c(c12)OC(C)(C)C=C3", "method": "ATP / luminescence", "value": "3 µg/mL"}
{"SMILES": "Cc1cc(NC(=O)c2c(C)c(C(=O)C(=O)NC3(CC(=O)O)CCCNC3)n(C)c2C)ccc1F", "method": "MTT", "value": ">30 µM"}
{"SMILES": "CC(C)(C)OC(=O)NCC(OC(=O)C(O)CO)c1ccc2c(c1)OCO2", "value": ">20 µM"}
{"SMILES": "Nc1ncnc2c1c(-c1ccoc1)cn2[C@H]1O[C@H](CO)[C@@H](O)C1(F)F", "method": "XTT", "value": ">10 µM"}
{"SMILES": "COc1ccc2ccc(=O)n(CCN[C@H]3CC[C@H]4[C@@H](C3)OC(=O)N4c3ccc4c(n3)NC(=O)CO4)c2n1", "method": "luminescence", "value": "10–100 µg/mL"}
{"SMILES": "CCOC(=O)CCCCCOc1cccc(CN(C(=O)c2ccc(-c3cccc4ccccc34)cc2)C(C)C)c1", "value": ">20 µM"}
{"SMILES": "COc1ccc2c(c1)C=C1Cn3c-2c(C2CCCCC2)c2ccc(cc23)C(=O)NS(=O)(=O)N(C)CCOCCN(C)C1=O", "method": "resazurin", "value": ">50 µM"}
{"SMILES": "CC(C)N(Cc1cccc(OCCCCCC(=O)OC(=O)O)c1)C(=O)c1ccc(-c2cccc(C(F)(F)F)c2)cc1", "value": ">20 µM"}
{"SMILES": "Nc1ncnc2c1c(I)cn2[C@@H]1O[C@H](CO)[C@@H](O)C1(F)F", "method": "XTT", "value": "0.35 µM"}
{"SMILES": "Cc1cc(NC(=O)c2c(C)c(C(=O)C(=O)NC3CCC(S(C)(=O)=O)CC3)n(C)c2C2CCCCC2)ccc1F", "method": "MTT", "value": ">30 µM"}
{"SMILES": "O=C(CSc1ccccn1)Nc1ccc(F)c(F)c1", "method": "luminescence", "value": ">100 µM"}
{"SMILES": "Cc1ccc(Oc2ccc(-c3nc(N)nc(N)n3)cc2)cc1", "method": "sulforhodamine / absorbance", "value": ">272 µM"}
{"SMILES": "Cc1cc(NC(=O)c2c(C)c(C(=O)C(=O)NC3CCC(O)CC3)n(C)c2CC2CC2)ccc1F", "method": "MTT", "value": ">30 µM"}
{"SMILES": "Cc1cc(OCC(=O)N2CCC(C)CC2)ccc1Br", "method": "luminescence", "value": "93 µM"}
{"SMILES": "Cc1cc(Cl)ccc1OCc1nn2c(-c3ccc(Br)cc3)nnc2s1", "method": "resazurin", "value": "19.57 µM"}
{"SMILES": "Cc1cccc(Oc2ccc(-c3nc(N)nc(N)n3)cc2)c1", "method": "sulforhodamine / absorbance", "value": ">273 µM"}
{"SMILES": "C[C@H]1C[C@@H]1NC(=O)c1cc2sc(OC3CC4(COC4)C3)nc2s1", "method": "fluorescence", "value": ">100 µM"}
{"SMILES": "c1ccc(N2c3ccccc3Sc3ccccc32)cc1", "method": "resazurin", "value": ">32 µg/mL"}
{"SMILES": "CCCCCCCCCCCCCCCCOCCCOP(=O)(C/C=C(\\C)Cn1cc(-c2ccc(CCCCC)cc2)nn1)OCOC(=O)OC(C)C", "method": "absorbance", "value": ">100 µM"}
{"SMILES": "Nc1nc(N)nc(-c2ccc(Oc3ccc(Br)cc3)cc2)n1", "method": "sulforhodamine / absorbance", "value": ">223 µM"}
{"SMILES": "COc1cccc(Oc2ccc3c(NCCCNCc4ccco4)ccnc3c2)c1", "method": "fluorescence", "value": "15.5 µM"}
{"SMILES": "CC(C)C[C@@H]1NC(=O)[C@H](Cc2c[nH]c3ccccc23)NC(=O)[C@@H](CCCCN)NC(=O)[C@H](CC(N)=O)NC(=O)[C@H](C(C)C)NC(=O)[C@@H](CC(C)C)NC1=O", "method": "MTT", "value": ">30 µM"}
{"SMILES": "Cc1cc(Oc2ccc(-c3nc(N)nc(N)n3)cc2)ccc1Cl", "method": "sulforhodamine / absorbance", "value": ">244 µM"}
{"SMILES": "Nc1ncnc2c1c(-c1ccoc1)cn2[C@@H]1O[C@H](CO)[C@@H](O)[C@H]1F", "method": "XTT", "value": ">10 µM"}
{"SMILES": "CC(C)C[C@@H]1NC(=O)[C@H](Cc2c[nH]c3ccccc23)NC(=O)[C@@H](CCCN)NC(=O)[C@H](CC(N)=O)NC(=O)[C@H](C(C)C)NC(=O)[C@@H](CC(C)C)NC1=O", "method": "MTT", "value": ">30 µM"}
{"SMILES": "COc1ccc(Br)c2c1B(O)O[C@@H]2CN", "method": "radiometric", "value": "97 µM"}
{"SMILES": "O=C(COc1ccc2ccccc2c1)Nc1ccncc1", "method": "luminescence", "value": ">100 µM"}
{"SMILES": "c1ccc(OCCCN2c3ccccc3Sc3ccccc32)cc1", "method": "resazurin", "value": ">32 µg/mL"}
{"SMILES": "CCC1(NC(=O)C(=O)c2c(C)c(C(=O)Nc3ccc(F)c(C)c3)c(C)n2C)CCN(C(C)=O)CC1", "method": "MTT", "value": ">30 µM"}
{"SMILES": "COC(=O)c1c(NC(NC(=O)c2cccs2)C(=O)c2ccccc2)sc(C(C)=O)c1C", "method": "luminescence", "value": ">100 µM"}

Again, the opening 7 rows:

SMILES,method,value
CCCC=C1c2ccccc2Sc2ccccc21,resazurin,14 µg/mL
COc1ccc(OCc2nn3c(-c4ccc(Br)cc4)nnc3s2)cc1,resazurin,50.17 µM
CCCCCCCc1ccc(-c2cn(C/C(C)=C/CP(=O)(OCOC(=O)OC(C)C)OCOC(=O)OC(C)C)nn2)cc1,absorbance,90.8 µM
NC[C@H]1OB(O)c2c3c(cc(Br)c21)OCCO3,radiometric,39.5 µM
O=[N+]([O-])c1ccc(OCc2nn3c(Cc4ccc5ccccc5c4)nnc3s2)cc1,resazurin,15.19 µM
C/C(=C\CP(=O)(OCOC(=O)OC(C)C)OCOC(=O)OC(C)C)Cn1cc(C(=O)O)nn1,absorbance,>100 µM
CC(C)C[C@@H]1NC(=O)[C@H](Cc2c[nH]c3ccccc23)NC(=O)CNC(=O)[C@H](CO)NC(=O)[C@H](C(C)C)NC(=O)[C@@H](CC(C)C)NC1=O,MTT,>30 µM

CCn: concentration that lowers growth or viability of the cells by n%. Conditions beyond the fields shown may differ between rows.